Patent US20250064789A1, “KETOAMIDE DERIVATIVES AND PHARMACEUTICAL USES THEREOF” (priority 2022, published 2025)

Target: recombinant SARS-CoV-2 M^pro (Severe acute respiratory syndrome coronavirus 2 (2019-nCoV) (SARS-CoV-2), UniProt P0DTD1)
Assay: Inhibition of SARS-CoV-2 M^pro enzyme activity (fluorescent substrate assay)
Format: biochemical
Details: values in nM

COC[C@@H](NC(=O)N1CCC(F)(F)CC1)C(=O)N[C@H](Cc1ccccc1)C(=O)C(=O)NCc1nccs1
IC50: 66.1 nM

O=C(CNC(=O)C1CCCC(F)(F)C1)N[C@H](Cc1ccccc1)C(=O)C(=O)NCc1nccs1 (some centres unmarked)
IC50: 62.8 nM
